For the experiment, the system named is SARS-CoV-2 (Omicron variant, B.1.1.529/BA.2 sublineage). In kind it is cell-based.

Each structure is given as a SMILES string.

As to `O=c1[nH]cnc2c([C@@H]3N[C@H](CO)[C@@H](O)[C@H]3O)c[nH]c12` [Forodesine, forodesine], the “selectivity index (SI)” value was greater than 142.9.

As for `COc1nc(N)nc2c1ncn2[C@@H]1O[C@H](CO)[C@@H](O)[C@@H]1O` [Nelarabine, nelarabine], the “100% CPE Inhibitory Concentration (CPEIC100)” value is 4.14 ± 0.14 µM.

For the origin of these results see PMC9797896 (Medicinal Chemistry Research, 2022).
